Results of unrelated studies side by side (data: NIAID ChemDB).

All rows: whole-cell or culture tests; agent: HIV-2; cells: CEM; endpoint: EC50

Blank or dashed fields: not listed here.

structure,strain,read by,result
O=C1c2ccccc2[C@]2(O)C3C4C[C@H]5CC(C[C@H]3C5)C4N12,ROD,syncytia,>20 µg/mL
COC(=O)Cn1c(=O)c(C)cn([C@H]2C=C[C@@H](CO[Si](C)(C)C(C)(C)C)O2)c1=O,ROD,syncytia,>10 µM
OCCOCc1ccc(F)cc1F,-,cytopathic effect / MTT,>500 µg/mL
CCCCCCCCn1c(=O)cnn([C@H]2C[C@H](O)[C@@H](CO)S2)c1=O,ROD,syncytia,>20 µM
CC(C)(C)[Si](C)(C)OC[C@H]1O[C@@H](n2cnc3c(=O)n(CC(=O)O)cnc32)[C@H](O)[C@@H]1O[Si](C)(C)C(C)(C)C,ROD,syncytia,9.2 µM
COC(=O)[C@H](C)NP(=O)(OC[C@@H]1C=C[C@H](n2cc(C)c(=O)[nH]c2=O)O1)Oc1ccccc1,-,-,0.075 µM
CC(C)CS[C@@H]1C=C[C@H](n2cnc3c(N)ncnc32)C1,ROD,cytopathic effect / syncytia / trypan blue,>10 µg/mL
COC(=O)Cn1c(=O)c(C)cn([C@@H]2O[C@H](CO[Si](C)(C)C(C)(C)C)[C@@H](O)[C@H]2O[Si](C)(C)C(C)(C)C)c1=O,ROD,syncytia,>10 µM
Nc1cccc2c1C(=O)N(C13CC4CC(CC(C4)C1)C3)C2=O,ROD,syncytia,>4 µg/mL
Cc1cn([C@@H]2O[C@@H]3CN[C@@]4(C#N)CS(=O)(=O)O[C@@]34[C@H]2O[Si](C)(C)C(C)(C)C)c(=O)[nH]c1=O,ROD,-,>50 µM
CCCCCCCCCCCCCC(=O)Oc1ccc(COP(=O)(OCc2ccc(OC(=O)CCCCCCCCCCCCC)cc2)OP(=O)(O)OC[C@@H]2C=C[C@H](n3cc(C)c(=O)[nH]c3=O)O2)cc1,ROD,syncytia / microscopy,2 µM
Cc1cn([C@H]2C=C[C@@H](OC(C(=O)O)P(=O)(O)O)C2)c(=O)[nH]c1=O,ROD,syncytia,>250 µM
COC(=O)[C@@H](NP(=O)(OC[C@@H]1C=C[C@H](n2cc(C)c(=O)[nH]c2=O)O1)Oc1ccccc1)c1ccccc1,-,-,15.3 µM
O=C1c2ccccc2C(=O)N1CC12CC3CC(CC(O)(C3)C1)C2,ROD,syncytia,>20 µg/mL
CSS[C@H]1C[C@H](n2cc(C)c(=O)[nH]c2=O)O[C@@H]1CO,ROD,syncytia,37 µM
CNOC(=O)Cn1c(=O)c(C)cn([C@@H]2O[C@H](CO[Si](C)(C)C(C)(C)C)[C@@H](O)[C@H]2O[Si](C)(C)C(C)(C)C)c1=O,ROD,syncytia,>10 µM
O=C1c2ccccc2C(=O)N1CC12CC3CC(CC(C3)C1)C2,ROD,syncytia,>4 µg/mL
OCC(CO)OCc1ccc(F)cc1F,-,cytopathic effect / MTT,>500 µg/mL
Nc1nc2c(ncn2CCCC(O)CF)c(=O)[nH]1,ROD,cytopathic effect,>100 µg/mL
CCCCCCCC/C=C\CCCCCCCC(=O)Oc1ccc(COP(=O)(OCc2ccc(OC(=O)CCCCCCC/C=C\CCCCCCCC)cc2)OP(=O)(O)OC[C@@H]2C=C[C@H](n3cc(C)c(=O)[nH]c3=O)O2)cc1,ROD,syncytia / microscopy,1.8 µM
Cn1c(=O)cnn([C@H]2C[C@H](O)[C@@H](CO)S2)c1=O,ROD,syncytia,>100 µM
CCO[C@]12CS(=O)(=O)O[C@@]13C(CN2)O[C@@H](n1cc(C)c(=O)n(C)c1=O)[C@@H]3O[Si](C)(C)C(C)(C)C,ROD,-,>50 µM
CN(C)c1ccn([C@@H]2O[C@H](CO[Si](C)(C)C(C)(C)C)C3(OS(=O)(=O)C=C3N)[C@H]2O[Si](C)(C)C(C)(C)C)c(=O)n1,-,syncytia,>166 µM
O=[N+]([O-])c1cc(COCCO)c(F)cc1F,-,cytopathic effect / MTT,>500 µg/mL
O=C1c2ccccc2C(=O)N1C/C=C\Cn1ccc(=O)[nH]c1=O,-,syncytia,>100 µM
OCCOCc1cc(I)c(F)cc1F,-,cytopathic effect / MTT,>500 µg/mL
COc1ccc2[nH]c(=O)c(CN(Cc3cccnc3)S(=O)(=O)c3cccc4nsnc34)cc2c1,ROD,p24 / ELISA,0.1365 µM
COCCOCCOCCOC(=O)C1(C(=O)OCCOCCOCCOC)C2c3cc4c5c6c7c8c9c%10c(cc%11c9c9c(cc(c%12c9c8c5c3-%12)C21)C%11)C=CC1(C=C6C4)CN(CCOCCOCCN)CC%1071,ROD,cytopathic effect,>4 µM
N#CCCC12CC3CC(C1)CC(N1C(=O)c4ccccc4C1=O)(C3)C2,ROD,syncytia,>4 µg/mL
C=Cc1nc2c(N)ncnc2n1[C@H]1CC[C@@H](CO)O1,-,cytopathic effect,>20 µg/mL
O=C1c2ccccc2C(=O)N1CC1C2CC3CC(C2)CC1C3,ROD,syncytia,>4 µg/mL
Nc1cnn([C@H]2C[C@H](O)[C@@H](CO)S2)c(=O)n1,ROD,syncytia,>100 µM
Cc1cn([C@H]2C[C@H](SS[C@H]3C[C@H](n4cc(C)c(=O)[nH]c4=O)O[C@@H]3CO)[C@@H](CO)O2)c(=O)[nH]c1=O,ROD,syncytia,60 µM
Cc1cn([C@@H]2O[C@@H]3CN[C@@]4(C(N)=O)CS(=O)(=O)O[C@@]34[C@H]2O[Si](C)(C)C(C)(C)C)c(=O)[nH]c1=O,ROD,-,>125 µM
O=C1c2ccccc2C(=O)N1CCC12CC3CC(CC(C3)C1)C2,ROD,syncytia,>4 µg/mL
Nc1ncnc2c1ncn2CCCC(O)CF,ROD,cytopathic effect,>100 µg/mL
O=C1c2ccccc2C(=O)N1C/C=C/Cn1ccc(=O)[nH]c1=O,-,syncytia,>100 µM
CCCCn1c(=O)cnn([C@H]2C[C@H](O)[C@@H](CO)S2)c1=O,ROD,syncytia,>20 µM
COC(=O)C(C)(C)NP(=O)(OC[C@@H]1C=C[C@H](n2cc(C)c(=O)[nH]c2=O)O1)Oc1ccccc1,-,-,0.5 µM
O=C1c2ccccc2C(=O)N1C/C=C\Cn1cc(F)c(=O)[nH]c1=O,-,syncytia,>100 µM
CCCCCCCCCCCCCCCC(=O)Oc1ccc(COP(=O)(OCc2ccc(OC(=O)CCCCCCCCCCCCCCC)cc2)OP(=O)(O)OC[C@@H]2C=C[C@H](n3cc(C)c(=O)[nH]c3=O)O2)cc1,ROD,syncytia / microscopy,1.7 µM
CC(C)(C)[Si](C)(C)OC[C@H]1O[C@@H](n2ccc(N)nc2=O)[C@H](O[Si](C)(C)C(C)(C)C)C12OS(=O)(=O)C=C2N,-,syncytia,>350 µM
N[C@H]1C(=O)N[C@@H]2Cc3ccc(c(Cl)c3)Oc3cc4cc(c3O)Oc3ccc(cc3Cl)[C@@H](O)[C@@H]3NC(=O)[C@H](NC(=O)[C@@H]4NC(=O)[C@@H](NC2=O)c2cc(O)cc(c2)Oc2cc1ccc2O)c1ccc(O)c(c1)-c1c(O)cc(O)cc1[C@@H](C(=O)C1NCCC2CCCCC21)NC3=O,-,syncytia,8.2 µM
Cc1cn([C@@H]2O[C@@H]3CN[C@@]4(OCCO)CS(=O)(=O)O[C@@]34[C@H]2O[Si](C)(C)C(C)(C)C)c(=O)[nH]c1=O,ROD,-,>25 µM
NC/C=C/Cn1cc(C(F)(F)F)c(=O)[nH]c1=O,-,syncytia,>50 µM

Neighbouring rows are from separate reports. ECn is the concentration giving n% inhibition of infection, replication or growth.